According to patent publication US7968304B2, “Determining and reducing immunoresistance to a botulinum toxin therapy using botulinum toxin B peptides” (dated 2011):

Legend:
[1] = system: mouse anti-BoNT/B antibodies; assay: BoNT/B peptide binding assay (solid-phase radioimmunoassay) with mouse antisera; conditions: outbred ICR mouse antisera 1:1000 and 1:2000 (vol/vol); FIG. 3; b343 lists peptides in decreasing amounts
[2] = system: horse anti-BoNT/B antibodies; assay: BoNT/B peptide binding assay (solid-phase radioimmunoassay) with horse antisera; conditions: horse antisera 1:500 and 1:1000 (vol/vol); FIG. 2; b337 lists peptides in decreasing amounts
[3] = system: human anti-pentavalent botulinum toxoid antibodies; assay: BoNT/B peptide binding assay (solid-phase radioimmunoassay, 125I-Protein A) with human antisera; conditions: human IgG fraction 1:1000 and 1:2000 (vol/vol); FIG. 1; b330 lists peptides in decreasing order

Substance | binding of mouse anti-BoNT/B antibodies, in words [1] | binding of horse anti-BoNT/B antibodies, in words [2] | further results
C S V S Y L M K K M I P L A V E K L L | recognized | – | –
D I R E V I A N G E I I F K L D G D I | Antibodies were bound | – | –
E E R Y K I Q S Y S E Y L K D F W G N | Antibodies were bound | – | –
E Y D E Q P T Y S C Q L L F K K D E E | – | Antibodies were bound | –
F L L E S Y I D N K N K I I K T I D N | – | – | binding of human anti-pentavalent botulinum toxoid antibodies, in words [3]: bound low amounts of antibodies
G E K F I I R R K S N S Q S I N D D I | moderate-to-high amounts | – | –
G V E L N D K N Q F K L T S S A N S K | – | Antibodies were bound | –
I L I E M F N K Y N S E I L N N I I L | Antibodies were bound | – | –
K D S P V G E I L T R S K Y N Q N S K | – | Antibodies were bound | –
KRKPYNLKLGCNWQFIPKDEGWTE | – | recognized | –
K V Y S F F S M D Y I K T A N K V V E | – | – | binding of human anti-pentavalent botulinum toxoid antibodies, in words [3]: bound low amounts of antibodies
N K V V E A G L F A G W V K Q I V N D | – | – | binding of human anti-pentavalent botulinum toxoid antibodies, in words [3]: bound low amounts of antibodies
N N I I L N L R Y K D N N L I D L S G | Antibodies were bound | – | –
S A E Y E K S K V N K Y L K T I M P F | – | Antibodies were bound | –
V E K L L D F D N T L K K N L L N Y I | – | Antibodies were bound | –
V N T Q F Y T I K E G M Y K A L N Y Q | – | Antibodies were bound | –
Y F S I F N T E L S Q S N I E E R Y K | – | recognized | –
